Results on two molecules are retold here after patent US8871807B2, “Detergents capable of cleaning, bleaching, sanitizing and/or disinfecting textiles including sulfoperoxycarboxylic acids” (Ecolab USA Inc., priority 2008, dated 2014).

A short description of this data set: Bleaching study of sulfonated peracids, Terg-o-tometer, % soil removal. The following applies: for SR (%) Red Wine on 100% cotton / SR (%) Tea on 100% cotton / SR (%) Tea on cotton-poly blend: 50 ppm available oxygen, 100° F., pH 7, 5 grain hard water, 20 minute; for SR (%) Red Wine on 100% cotton, compared to the POAA control / SR (%) Tea on 100% cotton, compared to the POAA control / SR (%) Tea on cotton-poly blend, compared to the POAA control: difference to equimolar peroxyacetic acid.

With `O=C(CCCCCS(=O)(=O)O)OO` [Compound 6-SPOHXA, 6-sulfoperoxyhexanoic acid], the “SR (%) Red Wine on 100% cotton” value is given as 69%; the “SR (%) Tea on 100% cotton” value is reported as 45%; the “SR (%) Tea on cotton-poly blend” value is given as 45%; the “SR (%) Red Wine on 100% cotton, compared to the POAA control” value was found to be 1%. The “SR (%) Tea on 100% cotton, compared to the POAA control” value is given as −5% and the “SR (%) Tea on cotton-poly blend, compared to the POAA control” value came to 2%.

Turning to `O=C(CCCCCCCCCCS(=O)(=O)O)OO` [Compound D, 11-sulfoundecaneperoxoic acid], the “SR (%) Red Wine on 100% cotton” value came to 48%; the “SR (%) Tea on 100% cotton” value was 12%; the “SR (%) Tea on cotton-poly blend” value is reported as 10%; the “SR (%) Red Wine on 100% cotton, compared to the POAA control” value is listed as −20%. In addition, the “SR (%) Tea on 100% cotton, compared to the POAA control” value is reported as −38% and the “SR (%) Tea on cotton-poly blend, compared to the POAA control” value is −32%.
